Results of unrelated studies side by side (data: NIAID ChemDB).

Shared fields: host cell toxicity; cell line: PBMC; read-out: CC50

a–b is a range or a potency band. CCn is the concentration with n% toxicity to the cells. Lines come from different laboratories, so protocols vary.

smiles,result
Cc1cn([C@H]2C[C@H](N=[N+]=[N-])[C@@H](CO)O2)c(=O)[nH]c1=O,>10 µM
O=c1[nH]cnc2c1ncn2[C@@H]1O[C@@H](CO)C=C1F,>100 µM
CCOP(=O)(OCC)C(F)(F)C[C@@]1(F)CO[C@@H](n2cnc3c(N)ncnc32)C1,95 µM
COc1ccc(OC)c(CCNC(=S)Nc2ccc(Br)cn2)c1,>100 µM
CCOCn1c([Se]c2ccccc2)c(CC)c(=O)[nH]c1=O,>100 µM
Nc1ncc([C@H]2C=C[C@@H](CO)O2)c(=O)[nH]1,>100 µM
Nc1nc2c(ncn2[C@H]2CO[C@@H](CO)O2)c(=O)[nH]1,>500 µM
COc1cccc2c1N(C(=O)OC(C)C)C(CSC)C(=S)N2,59 µM
CC(C)OC(=O)OCOP(=O)(CO[C@H](C)Cn1cnc2c(N)ncnc21)OCOC(=O)OC(C)C,29 µM
Cc1cn([C@H]2C[C@H](N=[N+]=[N-])[C@@H](CO)O2)c(=O)[nH]c1=O,>100 µM
CCC(=O)c1ccc(F)c([C@H]2C[C@H]2NC(=O)Nc2ccc(Br)cn2)c1O,61 µM
Nc1cccc(-c2c3nc(c(-c4cccc(N)c4)c4ccc([nH]4)c(-c4cccc(N)c4)c4nc(c(-c5cccc(N)c5)c5ccc2[nH]5)C=C4)C=C3)c1,>100 µM
Oc1ccc(CN2CCCNCCN(Cc3ccc(CN4CCCNCCNCCCNCC4)cc3)CCCNCC2)c2cccnc12,>10 µM
Cc1cn([C@H]2CC[C@@H](CO)O2)c(=O)[nH]c1=O,>100 µM
CCCCC(=O)OC[C@@H]1C=C[C@H](n2cc(F)c(N)nc2=O)O1,>100 µM
NCCN1CCNCc2ccc3ccc4ccc(nc4c3n2)CNCC1,>100 µM
Nc1ncnc2c1ncn2[C@@H]1CC[C@H](CO)O1,>100 µM
CC(C)C(N[C@@H](Cc1ccccc1)[C@@H](O)[C@H](O)[C@H](Cc1ccccc1)NC(C(=O)OCc1ccccc1)C(C)C)C(=O)OCc1ccccc1,>10 µM
C[C@H](Cn1cnc2c(N)ncnc21)OCP(=O)(O)O,1200 µM
COC(=O)[C@H](C)NP(=O)(OC[C@@H]1C=C[C@H](n2cc(C)c(=O)[nH]c2=O)O1)Oc1ccc(OC)cc1,>10 µM
CCOc1ccc(-c2c3nc(c(-c4ccc(OCC)cc4)c4ccc([nH]4)c(-c4ccc(OCC)cc4)c4nc(c(-c5ccc(OCC)cc5)c5ccc2[nH]5)C=C4)C=C3)cc1,>100 µM
CCOP(=O)(CO[C@H]1C[C@@H](n2cnc3c(Cl)nc(N)nc32)C(F)(F)C1)OCC,>100 µM
c1cc(CN2CCCNCCNCCCNCC2)cc(CN2CCCNCCNCCCNCC2)c1,>10 µM
COC(=O)C(C)CNP(=O)(OC[C@@H]1CC[C@H](n2cc(C)c(=O)[nH]c2=O)O1)Oc1ccc([N+](=O)[O-])cc1,>100 µM
O=c1[nH]cnc2c1ncn2[C@@H]1CC[C@H](CO)O1,>100 µM
Cn1cc(C(=O)O)c(=O)c2cc(F)c(N3CC=C(c4ccccc4)CC3)c(C(F)(F)F)c21,>4 µM
CCOP(=O)(OCC)C(F)(F)C[C@@]1(F)CO[C@@H](n2cc(C)c(=O)[nH]c2=O)C1,>100 µM
Cc1cn([C@H]2C[C@H](N=[N+]=[N-])[C@@H](CO)O2)c(=O)[nH]c1=O,>100 µM
Nc1nc(=O)n([C@H]2C=C[C@@H](CO)O2)cc1F,>100 µM
Oc1ccc(CNCc2ccc(CNCc3ccc(O)c4ncccc34)cc2)c2cccnc12,>10 µM
COC(=O)C(C)CNP(=O)(OC[C@@H]1CC[C@H](n2cc(C)c(=O)[nH]c2=O)O1)Oc1ccc(F)cc1,>100 µM
O=c1ccn(Cc2ccccc2)c(=O)n1-c1ccccc1,216 µM
CCOP(=O)(OCC)C(F)(F)C[C@@]1(F)CO[C@@H](n2ccc(N)nc2=O)C1,>100 µM
CCOCn1c([Se]c2ccccc2)c(F)c(=O)[nH]c1=O,>100 µM
CN1CCNCc2cccc(n2)-c2cccc(n2)CNCC1,>100 µM
CSCC[C@H](NC(=O)[C@H](Cc1ccccc1)NC(=O)CNC(=O)CNC(=O)[C@@H](N)Cc1ccc(O)cc1)C(=O)O,650 µg/mL
Nc1nc2c(ncn2[C@@H]2C=C[C@H](CO)O2)c(=O)[nH]1,>100 µM
COC(=O)[C@H](Cc1c[nH]c2ccccc12)NC(=O)OC[C@H]1O[C@@H](n2cc(C)c(=O)[nH]c2=O)C[C@@H]1N=[N+]=[N-],>100 µM
Cc1cc(C)cc(Cn2ccc(=O)n(Cc3cc(C)cc(C)c3)c2=O)c1,>206 µM
COc1ccc(C2CNC(=O)C2)cc1OC1CCCC1,>>100 µM
N#CCn1ccc(=O)n(Cc2ccc(-c3ccccc3)cc2)c1=O,>394 µM
O=c1ccn([C@H]2C=C[C@@H](CO)O2)c(=O)[nH]1,>100 µM
CCCN(C)C(=O)Oc1nsnc1-c1c(Cl)ccc(N)c1Cl,53 µM
CC(C)C(Cc1ccccc1)NC(=O)C[C@@H]1O[C@@H]1[C@H](Cc1ccccc1)NC(=O)[C@@H](NC(=O)C1=CC(=O)CC(C)(C)O1)C(C)(C)S(C)(=O)=O,>10 µM
C#C[C@]1(CO)O[C@@H](n2cnc3c(N)nc(F)nc32)C[C@@H]1O,12 µM
Cc1ccc(CCNC(=S)Nc2ccc(Br)cn2)cc1,71 µM
CCc1cn([C@H]2CC[C@@H](CO)O2)c(=O)[nH]c1=O,>100 µM
O=c1cc(-c2ccccc2)oc2cc(O)c(O)c(O)c12,54 µM
Cc1cn([C@H]2C[C@H](N=[N+]=[N-])[C@@H](CO)O2)c(=O)[nH]c1=O,>100 µM
Nc1nc2c(ncn2[C@H]2CO[C@@H](CO)O2)c(=O)[nH]1,>500 µM
CC(C)OC(=O)N[C@H](C(=O)N[C@@H](Cc1ccccc1)[C@H]1O[C@H]1CC(=O)NC(Cc1ccccc1)C(C)C)C(C)(C)S(C)(=O)=O,>10 µM
Cc1cn([C@H]2C[C@H](N=[N+]=[N-])[C@@H](CO)O2)c(=O)nc1N,>200 µM
CSc1c(C)c(SC)n2ccncc12,54.8 µM
Oc1ccc(CN2CCN(Cc3ccc(O)c4ncccc34)CC2)c2cccnc12,>10 µM
N#CCn1ccc(=O)n(Cc2cc(F)cc(F)c2)c1=O,>451 µM
CC1(C)Oc2ccc3ccc(=O)oc3c2[C@@H](OC(=O)C23CCC(C)(C(=O)O2)C3(C)C)[C@H]1OC(=O)C12CCC(C)(C(=O)O1)C2(C)C,4–20 µg/mL
Nc1ncnc2c1ncn2C1OC(CO)C=C1F,>100 µM
COC(=O)C(C)CNP(=O)(OC[C@@H]1CC[C@H](n2cc(C)c(=O)[nH]c2=O)O1)Oc1ccc(OC)cc1,>100 µM
Nc1ccn([C@H]2C=C[C@@H](CO)C2)c(=O)n1,>100 µM
COc1ccc(-c2c3nc(c(-c4ccc(OC)cc4OC)c4ccc([nH]4)c(-c4ccc(OC)cc4OC)c4nc(c(-c5ccc(OC)cc5OC)c5ccc2[nH]5)C=C4)C=C3)c(OC)c1,>100 µM
Cc1cn([C@H]2C=C[C@@H](CO)O2)c(=O)[nH]c1=O,>100 µM
CCOP(=O)(CO[C@H]1C[C@@H](n2cnc3c(N)ncnc32)C(F)(F)C1)OCC,>100 µM
Nc1ccn([C@H]2C[C@@](F)(CC(F)(F)P(=O)(O)O)CO2)c(=O)n1,>100 µM
CNC(=O)[C@@H](Cc1ccccc1)NC(=O)OC[C@H]1O[C@@H](n2cc(C)c(=O)[nH]c2=O)C[C@@H]1N=[N+]=[N-],>100 µM
Nc1ccn([C@H]2CC[C@@H](CO)O2)c(=O)n1,>100 µM
COC(=O)[C@H](Cc1c[nH]c2ccccc12)NP(=O)(O)OC[C@H]1O[C@@H](n2cc(C)c(=O)[nH]c2=O)C[C@@H]1N=[N+]=[N-],>100 µM
COc1ccc(-c2c3nc(c(-c4ccc(OC)c(OC)c4)c4ccc([nH]4)c(-c4ccc(OC)c(OC)c4)c4nc(c(-c5ccc(OC)c(OC)c5)c5ccc2[nH]5)C=C4)C=C3)cc1OC,>100 µM
[B-][P@](=O)(OC[C@H]1O[C@@H](n2cc(C)c(=O)[nH]c2=O)C[C@@H]1N=[N+]=[N-])OP(=O)(O)C(F)(F)P(=O)(O)O,>50 µM
C1=Cc2nc1c(-c1ccc(-n3cccc3)cc1)c1ccc([nH]1)c(-c1ccc(-n3cccc3)cc1)c1nc(c(-c3ccc(-n4cccc4)cc3)c3ccc([nH]3)c2-c2ccc(-n3cccc3)cc2)C=C1,>100 µM
Cc1cn([C@H]2C[C@H](N=[N+]=[N-])[C@@H](CO)O2)c(=O)[nH]c1=O,>0.25 µM

For reference, 4 entries again:

smiles | result
CCOP(=O)(CO[C@H]1C[C@@H](n2cnc3c(Cl)nc(N)nc32)C(F)(F)C1)OCC | >100 µM
Nc1cccc(-c2c3nc(c(-c4cccc(N)c4)c4ccc([nH]4)c(-c4cccc(N)c4)c4nc(c(-c5cccc(N)c5)c5ccc2[nH]5)C=C4)C=C3)c1 | >100 µM
Oc1ccc(CNCc2ccc(CNCc3ccc(O)c4ncccc34)cc2)c2cccnc12 | >10 µM
Cc1cn([C@H]2C[C@H](N=[N+]=[N-])[C@@H](CO)O2)c(=O)[nH]c1=O | >10 µM